Pooled drug test results. Numbers come from NIAID ChemDB, via PubChem.

Common to all: whole-cell or culture tests; species: HIV-1; cells: MT-4; read-out: EC50

ECn: concentration that inhibits the pathogen or its effect by n%. Blank or dashed fields: not listed here. Lines come from different laboratories, so protocols vary.

smiles	strain	changes	read by	result
Cc1cc(C)cc(C(=O)c2cccnc2Nc2ccc(S(C)(=O)=O)cc2)c1	IIIB		MTT	>98.17 µM
N#Cc1ccc(Nc2nc(Oc3ccc(-c4ccc(C#N)cc4)cc3)c3sccc3n2)cc1	IIIB		MTT	0.0674 µM
Cc1cc(C)cc(C(=O)c2cccnc2Oc2ccccc2)c1	IIIB		MTT	≥2.51 µM
N#Cc1ccc(Nc2nc(Oc3c(Br)cc(Br)cc3Br)ncc2N)cc1	IIIB		MTT	0.05 µM
Cc1cn([C@H]2C[C@H](N=[N+]=[N-])[C@@H](CO)O2)c(=O)[nH]c1=O	RF	RT-M184I	cytopathic effect / MTT	0.015 µM
COC(=O)[C@@H](Cc1ccc(O)c(O)c1)OC(=O)/C=C/c1ccc(O)c(O)c1/C=C/c1ccc(O)c(O)c1	IIIB		p24 / antigen	1.62 µg/mL
Nc1ccn([C@H]2CC[C@@H](CO)O2)c(=O)n1	RF	RT-M184I	cytopathic effect / MTT	0.22 µM
O=C(CSc1nnnn1-c1cccc2ccccc12)Nc1ccccc1F			p24	<10 µM
Cc1ccnc2c1NC(=O)c1cccnc1N2C1CC1	Recombinant	RT-G190A	cytopathic effect / MTT	7.943 µM
CC(=O)Nc1cnc(Oc2c(Cl)cc(Cl)cc2Cl)nc1Nc1ccc(C#N)cc1	IIIB		MTT	1.92 µM
Cc1cc(-c2ccc(C#N)cc2)cc(C)c1Oc1nc(Nc2ccc(C#N)cc2)nc2ccsc12	IIIB	F227L V106A	MTT	0.02536 µM
Cc1cc(C)c(-n2nnnc2SCC(=O)Nc2cccc(Cl)c2Cl)c(C)c1			p24	<10 µM
Cc1cc(C)cc(C(=O)c2cccnc2Oc2ccc(C#N)cc2)c1	IIIB		MTT	12.99 µM
Cc1cn([C@H]2C[C@H](N=[N+]=[N-])[C@@H](CO)O2)c(=O)[nH]c1=O	IIIB		p24 / antigen	0.000083 µg/mL
N#Cc1ccc(Nc2nc(Oc3c(Cl)cc(Cl)cc3Cl)ncc2[N+](=O)[O-])cc1	RES056		MTT	>25.2 µM
Cc1cn([C@H]2C[C@H](N=[N+]=[N-])[C@@H](CO)O2)c(=O)[nH]c1=O	DI-06.92 (HXB2 RT-K70R)	RT-K70R	cytopathic effect	0.058 µM
Cc1cc(C)c(-n2nnnc2SCC(=O)Nc2cc(C)on2)c(C)c1			p24	<10 µM
N#Cc1ccc(Nc2nc(Oc3c(Cl)cccc3Cl)ncc2N)cc1	IIIB		MTT	0.0234 µM
C=C(C#N)c1cc(C)c(Oc2ccnc(Nc3ccc(CN4CCN(S(C)(=O)=O)CC4)cc3)n2)c(C)c1	IIIB	Y181C	MTT	0.025 µM
COc1ccc(Cc2ccccc2)cc1C(=O)CC(=O)C(=O)O	IIIB		p24	<0.3 µM
CCCc1c(C)[nH]c(=O)c(N(C)C)c1Cc1cc(C)cc(C)c1	LAI		cytopathic effect / MTT	50.1 µM
CC(C)=CCN1Cc2cc(Cl)cc3[nH]c(=S)n(c23)C[C@@H]1C		RT-M41L T215Y K101E		<3 µM
CC(C)(C)OC(=O)N[C@@H](Cc1ccccc1)[C@@H](O)C[C@@H](Cc1ccc(OCCN2CCOCC2)cc1)C(=O)N[C@H]1c2ccccc2C[C@H]1O	MN		antigen	<0.025 µM
N#Cc1ccc(Nc2nc(Oc3ccc(-c4ccc(C#N)cc4)cc3[N+](=O)[O-])c3sccc3n2)cc1	IIIB	F227L V106A	MTT	>40.9 µM
O=c1[nH]cnc2c1ncn2[C@H]1CC[C@@H](CO)O1	IIIB		cytopathic effect	24.76 µM
Cc1cc(C#N)cc(C)c1Oc1nc(Nc2ccc(C#N)cc2)nc(N)c1Br	IIIB		MTT	0.0018 µM
CC(C)c1ccccc1-n1nnnc1SCC(=O)Nc1ccccc1[N+](=O)[O-]			p24	<10 µM
N#Cc1ccc(Nc2nc(Oc3c(Cl)cccc3Cl)ncc2NC(=O)C(F)(F)F)cc1	RES056		MTT	>190 µM
Cc1cc(C)c(-n2nnnc2SCC(=O)Nc2cccc(F)c2C)c(C)c1			p24	<10 µM
Nc1ccn([C@H]2CC[C@@H](CO)O2)c(=O)n1	FO-08.96 (HXB2 RT F77L F116Y Q151M)	RT-F77L F116Y Q151M	cytopathic effect	>20 µM
Cc1cc(C)c(-n2nnnc2SCC(=O)Nc2ccc(F)cc2C)c(C)c1			p24	<10 µM
Cc1ccnc2c1NC(=O)c1cccnc1N2C1CC1	IIIB		MTT	0.3094 µM
CC(=O)Nc1cnc(Oc2c(Br)cc(Br)cc2Br)nc1Nc1ccc(C#N)cc1	IIIB		MTT	19.6 µM
COc1ncccc1C(=O)c1cccc(C#N)c1	RES056		MTT	>255 µM
Cc1cc(C)c(Oc2ncc(N)c(Nc3ccc(C#N)cc3)n2)c(C)c1	RES056		MTT	0.75 µM
O=C(/C=C/c1ccc(O)c2c1[C@H](C(=O)O)[C@H](c1ccc(O)c(O)c1)O2)O[C@H](Cc1ccc(O)c(O)c1)C(=O)O	IIIB		p24 / antigen	6.11 µg/mL
Cc1cc(C)c(-n2nnnc2SCC(=O)Nc2cc([N+](=O)[O-])ccc2Cl)c(C)c1			p24	<10 µM
N#Cc1ccc(Nc2nc(Oc3c(Cl)cccc3Cl)ncc2[N+](=O)[O-])cc1	IIIB		MTT	3.21 µM
Cc1cc(C)cc(C(=O)c2cccnc2Nc2ccc(/C(N)=N\O)cc2)c1	IIIB		MTT	>30.27 µM
O=C(O)C(=O)CC(=O)c1cccc(Cc2ccccc2)c1	IIIB		p24	<0.8 µM